A mixed list of measured activities; the numbers were collected in NIAID ChemDB.

All rows: host cell toxicity; cell line: HepG2; endpoint: CC50

Conditions beyond the fields shown may differ between rows. CCn is the concentration with n% toxicity to the cells. An empty or dashed field is not shown.

structure | conditions | method | result
CCOc1ccc(Nc2cc(C)nc3ccc(OC)cc23)cc1 | - | cell count / luminescence | >27.4 µM
O=C(Nc1ccccc1)c1ccccc1OC(=O)N(c1ccccc1)c1ccccc1 | - | MTT | 211.1 µM
CC1CC(C)CN(c2ccc([N+](=O)[O-])s2)C1 | - | resazurin | 110 µg/mL
CC(NCc1ccc(OCc2ccccc2)cc1)C(O)c1ccccc1 | - | cell count / luminescence | >30.8 µM
O=C(N[C@H](CO)Cc1ccccc1)/C(NC(=O)c1ccc(F)cc1)=C(/Br)c1ccccc1 | - | MTT | >100 µM
COc1ccc(-c2csc(/C(C#N)=C/c3ccc(O)c(OC)c3)n2)cc1 | - | MTT | 58.8 µg/mL
COc1cc2c(cc1OC)[C@]13C[C@@H](OC)C=CC1=CCN3CC2 | - | MTT | 15.8 µg/mL
CN(C(=O)Oc1ccc(Cl)cc1C(=O)Nc1ccc(Br)cc1)c1ccccc1 | - | MTT | 945.1 µM
Cc1ccc(N=Cc2ccc([N+](=O)[O-])s2)cc1[N+](=O)[O-] | - | MTT | >80 µg/mL
OCCc1ccc(O)c(O)c1 | - | MTT | 10.1 µM
CN(C)C(=S)Oc1ccc(Cl)cc1C(=O)Nc1ccc(Br)cc1 | - | MTT | 85.64 µM
CC(=O)c1cc([N+](=O)[O-])c(N2CC(C)CC(C)C2)s1 | - | resazurin | 41 µg/mL
O=[N+]([O-])c1ccc(O)c(C=Nc2cccc3cccnc23)c1 | - | MTT | 443.1 µg/mL
CC1CCCN(c2ccc([N+](=O)[O-])s2)C1 | - | resazurin | >20 µg/mL
Cc1occc1-c1nnc(SCC(=O)N(C)c2ccc(F)cc2)o1 | - | MTT | >80 µg/mL
CN(C(=O)Oc1ccc(Cl)cc1C(=O)Nc1ccc(F)cc1)c1ccccc1 | - | MTT | 512 µM
Cc1cn([C@H]2C[C@H](N=[N+]=[N-])[C@@H](CO)O2)c(=O)[nH]c1=O | - | - | >200 µM
CC1C(=O)N(O)c2ncc(Br)cc2C1O | 3 d | MTS | 65.7 µM
Cc1cn([C@@H]2CC[C@H](CO)O2)c(=O)[nH]c1=O | - | - | >200 µM
Cc1cc2ccc3c(c2c(-c2ccc4c(c2)OCO4)c1CO)OCO3 | - | - | 16 µM
Cc1ccc(NC2=CC(=O)c3ccccc3C2=O)cc1 | - | MTT | >20 µg/mL
Cc1cn([C@H]2C[C@H](N)[C@@H](CO)O2)c(=O)[nH]c1=O | - | - | 120 µM
c1ccc(C(CCNCC2(c3ccc4c(c3)OCCO4)CCOCC2)c2ccccc2)cc1 | - | cell count / luminescence | >24.9 µM
O=c1nc(N2CCN(CC3CCCCC3)CC2)sc2c([N+](=O)[O-])cc(C(F)(F)F)cc12 | - | MTT | 18.98 µg/mL
Cc1cn([C@H]2CC[C@@H](CO)O2)c(=O)[nH]c1=O | - | - | >200 µM
CC(C)(C)C1CCc2onc(C(=O)N3CCCCC3)c2C1 | - | MTT | >80 µg/mL
O=C1OC(=O)c2c1cc1c(Br)cc3c(c1c2-c1cc2c(cc1Br)OCO2)OCO3 | - | - | 6 µM
COc1cc(/C=C/C(=O)O[C@H]2[C@H](O)[C@@H](OC3OCC(O)(CO)C3O)[C@H](OCCc3ccc(O)cc3)O[C@@H]2CO)ccc1O | - | MTT | 9.04 µM
Cc1cn([C@@H]2C[C@@H](N)[C@H](CO)O2)c(=O)[nH]c1=O | - | - | >200 µM
O=C(Nc1ccc(Cl)cc1)c1cc(Cl)ccc1OC(=O)N(c1ccccc1)c1ccccc1 | - | MTT | >100 µM
Cc1cc(O)c(C(=O)/C=C/c2ccccc2)c(=O)o1 | - | MTT | >80 µg/mL
Nc1nc(NC2CC2)c2ncn([C@H]3C=C[C@@H](CO)C3)c2n1 | - | - | 180 µM
CN(C)C(=O)Oc1ccc(Cl)cc1C(=O)Nc1ccc(F)cc1 | - | MTT | 444.5 µM
COc1cc(N/N=C/c2ccccc2O)ncn1 | - | MTT | >40 µg/mL
O=c1[nH]cnc2c1ncn2[C@H]1CC[C@@H](CO)O1 | - | neutral red | 360 µM
CC1CC(C)CN(c2sc([N+](=O)[O-])cc2[N+](=O)[O-])C1 | - | resazurin | 72 µg/mL
Cc1ccc(Cl)cc1N=c1c([N+](=O)[O-])nn(-c2ccccc2)n1O | - | MTT | >80 µg/mL
C[C@@H]1O[C@@H](O[C@@H]2[C@@H](O)[C@H](OCCc3ccc(O)c(O)c3)O[C@H](COC(=O)/C=C/c3ccc(O)c(O)c3)[C@H]2O)[C@H](O)[C@H](O)[C@H]1O | - | MTT | 8.59 µM
Cc1cc(=O)c2c(O)c3c(O)cc(=O)c4c3c3c(cc(O)c1c23)C(C)(C)C=4O | - | MTT | >80 µg/mL
O=c1cc(N2CCN(Cc3ccccc3)CC2)sc2c([N+](=O)[O-])cc(C(F)(F)F)cc12 | - | MTT | >64 µg/mL
OCc1cc2ccc3c(c2c(-c2ccc4c(c2)OCO4)c1CO)OCO3 | - | - | 16 µM
O=c1[nH]cnc2c1ncn2[C@H]1CC[C@@H](CO)O1 | - | - | >500 µM
Nc1ccn([C@H]2CC[C@@H](CO)O2)c(=O)n1 | - | neutral red | 7.7 µM
Nc1ccc(NC2=C(N3CCCCC3)C(=O)c3ccccc3C2=O)cc1 | - | MTT | 130.5 µg/mL
Cc1cc2ccc3c(c2c(-c2ccc4c(c2)OCO4)c1C)OCO3 | - | - | 17 µM
COc1cc(CCOC(=O)CCC(=O)CO)cc(O)c1OC | - | MTT | 2.15 µM
c1ccc(-c2ccccc2OCCCCN2CCCCC2)cc1 | - | cell count / luminescence | >24.5 µM

For reference, 4 entries again:

structure,conditions,method,result
COc1cc(/C=C/C(=O)O[C@H]2[C@H](O)[C@@H](OC3OCC(O)(CO)C3O)[C@H](OCCc3ccc(O)cc3)O[C@@H]2CO)ccc1O,-,MTT,9.04 µM
CC(=O)c1cc([N+](=O)[O-])c(N2CC(C)CC(C)C2)s1,-,resazurin,41 µg/mL
Cc1cn([C@H]2CC[C@@H](CO)O2)c(=O)[nH]c1=O,-,-,>200 µM
O=[N+]([O-])c1ccc(O)c(C=Nc2cccc3cccnc23)c1,-,MTT,443.1 µg/mL